Key:
ColQ1-CU = ColQ1-CU (Bacillus cereus, UniProt B9J3S4); experiment: In vitro FRET-based peptidolytic assay, collagenase unit of ColQ1; format: biochemical, B. cereus strain Q1; conditions: read-out: Ki (ColQ1-CU); printed in the % inhibition column of Table S1, unit inferred
ColH-PD = ColH-PD (Hathewaya histolytica, UniProt Q46085); experiment: In vitro FRET-based peptidolytic assay, peptidase domain of ColH; conditions: screening at 100 µM

The chains behind the UniProt entries cited, without tags or fusion partners. Residues count along the entry.
UniProt Q46085, 331-721 limits assumed: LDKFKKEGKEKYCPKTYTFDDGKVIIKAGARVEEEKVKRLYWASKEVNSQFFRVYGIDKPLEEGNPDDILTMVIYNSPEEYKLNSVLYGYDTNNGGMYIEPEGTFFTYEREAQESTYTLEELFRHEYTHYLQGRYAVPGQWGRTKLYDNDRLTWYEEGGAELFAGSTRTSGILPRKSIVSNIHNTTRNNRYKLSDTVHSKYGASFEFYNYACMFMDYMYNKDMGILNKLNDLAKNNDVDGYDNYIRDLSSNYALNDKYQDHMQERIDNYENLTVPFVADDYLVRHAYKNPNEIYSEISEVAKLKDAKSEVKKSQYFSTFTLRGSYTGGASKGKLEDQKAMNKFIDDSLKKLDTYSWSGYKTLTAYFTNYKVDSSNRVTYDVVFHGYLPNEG

Structure (SMILES): CC(C)CC(C(=O)NO)C(=O)Nc1cccc(Cn2cc(CNS(=O)(=O)c3ccc(I)cc3)nn2)c1 (centres unmarked)
- Ki (ColQ1-CU): 6.9 µM
- % Inhibition (ColH-PD) Mean (ColH-PD): 58%

Source: publication PMC9574867, “Discovery and Characterization of Synthesized and FDA-Approved Inhibitors of Clostridial and Bacillary Collagenases” (Journal of Medicinal Chemistry, 2022)
